Source: patent US20070265201A1, “INHIBITORS OF INFLAMMATORY CYTOKINE TRANSCRIPTION DERIVED FROM HCMV PROTEIN IE2” (priority 2005, published 2007)

System: HeLa-S3 cells
Assay: Localization of GFP-IE2 fragment fusion protein after transfection
Assay type: cell-based
Settings: 24 hours post transfection, HeLa-S3, FIG. 4A

GFP-IE2 291-343 (SSHHGRGGFGGAASSSLLSCGHQSSGGASTGPRKKKSKRISELDNEKVRNIMK; left off: large carriers)
subcellular localization of GFP fusion protein: both cytoplasmic and nuclear localization
